Laboratory results: PubChem BioAssay AID1259414 (Drosophila RNAi Screening Center, 2018)
Aim: 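Host factors increasing or decreasing Wolbachia levels in cultured fly cells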 (primary screen). Cells: Drosophila JW18 cells infected with Wolbachia. Reagents: long dsRNA against Drosophila genes, 0.25 µg dsRNA per well of a 384-well plate. Time to read-out: 5 days. Conditions: cells persistently infected with Wolbachia before knock-down; no added drug. Measurement: 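Imaged fluorescence in situ signal for Wolbachia 23S rRNA per DAPI-counted host cell, given as a robust z-score within each plate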. Direction: Wolbachia per cell robust z: higher = more Wolbachia per host cell than the plate typical. Call rule: 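Hit when robust z is 1.5 or more, or -1.5 or less, in at least two of three replicates; excludes dsRNAs with several or no targets, genes not expressed in JW18 and well A1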.
In all, the deposit lists about 24,000 reagents; below is an unselected part of those with a known target gene and a result. In the full data, about 1,210 (5%) are marked active. 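Inactive calls also include excluded dsRNAs with several or no targets, genes unexpressed in JW18, and well A1, regardless of score.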 Unmarked entries are inactive. Names joined by + are all predicted targets of the reagent.

no.	gene	dsRNA	Wolbachia per cell robust z, rep 1	Wolbachia per cell robust z, rep 2	Wolbachia per cell robust z, rep 3
1	RpS19a	DRSC20281	3.81 (active)	2.57	3.93
2	CG18666	DRSC02694	0.258	-0.374	-0.598
3	Ugt317A1	DRSC04470	0.611	-0.998	0.331
4	CG42305 + CG17325	DRSC02602	-4.87	-3.32	2.26
5	CG30447	DRSC05820	0.935	0.728	1.02
6	PPP4R2r	DRSC18695	1.09	1.54	1.12
7	PPP4R2r	DRSC21503	-0.0242	0.758	-1.03
8	PPP4R2r	DRSC27825	-0.598	-0.0406	0.313
9	CG5024	DRSC15698	0.555	0.701	-0.0448
10	AstA-R2	DRSC14171	-2.84	-0.734	0.00253
11	AstA-R2	DRSC24820	0.396	0.84	-0.263
12	Nup107	DRSC01999	0.393	0.0389	0.603
13	CG31546	DRSC12317	-0.64	-4.78	-0.777
14	CG31546	DRSC25825	0.747	-0.641	-0.447
15	CG1418	DRSC06447	0.546	0.625	-3.4
16	CG1418	DRSC26354	-1.1	0.692	-0.325
17	Lk	DRSC10022	0.731	-2.34	-0.0411
18	ssp7	DRSC18878	-4.74	-0.442	-1.36
19	CG18063	DRSC01968	2.13	1.55	0.536
20	tj	DRSC02011	1.14	1.13	1.3
21	tj	DRSC28417	-1.61	-3.47	-2.43
22	Nrd1	DRSC19830	0.487	0.215	0.982
23	CG7294	DRSC03041	0.0409	-4.28	-0.285
24	CG7294	DRSC25336	-11.4	-8.1	-1.81
25	CG12464	DRSC06156	-2.49	0.0719	-1.16
26	Elal	DRSC16662	-0.8	1.17	-2.69
27	vnc + CG42455	DRSC09867	1.46	-0.958	0.933
28	COX8	DRSC11814	0.204	0.0539	-0.345
29	COX8	DRSC28975	-0.548	-0.968	-1.96
30	CG11406	DRSC04010	-10	-0.265	0.437
31	CG11406	DRSC04108	1.34	0.412	-4.67
32	CG5886	DRSC15908	0.486	0.584	0.105
33	mrj	DRSC22592	0.809	0.869	-0.294
34	mrj	DRSC25295	-0.459	0.624	0.916
35	Spn28Db	DRSC22033	0.369	-1.94	-0.695
36	Osi20	DRSC12568	-0.47	-2.59	-0.24
37	Osi20	DRSC28630	-1.24	0.627	0.411
38	CG42748	DRSC03712	-5.25	0.51	-0.961
39	CG42748	DRSC03713	-0.711	0.325	-2.98
40	CG42748	DRSC03734	-0.0646	-0.482	-0.519
41	CG42748	DRSC28935	0.254	-1.56	0.153
42	CG1387	DRSC17904	0.495	-0.576	-0.623
43	Glut3	DRSC16681	0.854	-0.118	0.361
44	Glut3	DRSC26249	3.13	1.05	-0.355
45	ATPsynF	DRSC04482	0.506	-0.0126	-0.44

Targets listed so far whose gene name begins with T or t (2):
gene	dsRNA	Wolbachia per cell robust z, rep 1	Wolbachia per cell robust z, rep 2	Wolbachia per cell robust z, rep 3
tj	DRSC02011	1.14	1.13	1.3
tj	DRSC28417	-1.61	-3.47	-2.43

The results go on:
no.	gene	dsRNA	Wolbachia per cell robust z, rep 1	Wolbachia per cell robust z, rep 2	Wolbachia per cell robust z, rep 3
46	CG34427	DRSC09978	-0.501	0.332	0.0953
47	CG32533	DRSC19443	-0.104	-7.91	-1.26
48	CG32533	DRSC19553	-0.192	-0.537	0.0157
49	CG32533	DRSC24560	-0.857	0.872	-1.75
50	CG32533	DRSC39093	-0.0732	-5.68	-0.364
51	dob	DRSC19948	-0.549	0.613	0.904
52	DCTN3-p24	DRSC04592	0.863	-0.242	-2.52
53	DCTN3-p24	DRSC29156	0.373	0.125	-1.18
54	mRNA-cap	DRSC19789	-2.72	1.73	0.406
55	mnd	DRSC11370	-0.925	0.101	0.048
56	CG13855	DRSC14705	0.975	0.471	0.938
57	CG13855	DRSC26677	0.704	0.339	1.72
58	CG33639	DRSC19966	-3.48	-0.00258	-3.58
59	CG33639	DRSC22820	-0.263	0.0228	-0.527
60	CG33639	DRSC23778	0.904	0.217	0.428
61	CG3635	DRSC03729	0.0837	1.03	1.34
62	CG8067	DRSC07065	-2.83 (active)	-1.64	-5.11
63	Spn77Bb + Spn77Bc	DRSC10689	-3.61	-0.531	-7.61
64	CG11037	DRSC11631	-1.97	0.317	-5.26
65	CG31709	DRSC01081	1.36	0.0188	0.85
66	CG31709	DRSC27731	-0.803	0.502	-0.151
67	rgr	DRSC06487	0.863	0.22	-0.616
68	rgr	DRSC07229	-0.674	-0.0157	-1.19
69	hng3	DRSC08367	-3.72	-0.0748	0.0515
70	hng3	DRSC29262	-0.774	-1.31	-2.8
71	CG17005	DRSC02556	-0.61	-0.298	0.77
72	Jhbp2	DRSC12292	-0.407	0.199	-0.407
73	lncRNA:CR43337	DRSC07893	-0.166	-0.308	0.242
74	lncRNA:CR43337	DRSC25126	-0.177	3.08	0.849
75	axo	DRSC08116	0.351	0.357	0.463
76	axo	DRSC08324	0.774	-0.514	-3.45
77	axo	DRSC21337	-0.984	-1.5	0.264
78	axo	DRSC23087	-0.405	0.00467	1.36
79	axo	DRSC28552	-0.179	-1.45	-1.32
80	bwa	DRSC01749	0.584	0.684	0.894
81	bwa	DRSC02310	-0.49	-0.214	-0.135
82	CG17574	DRSC06681	-0.173	-1.31	0.771
83	ATP6AP2	DRSC16420	-0.138	-1.28	0.804
84	CG7781	DRSC03068	-9.54	-0.94	0.0167
85	Ir48a	DRSC05301	0.26	1.07	0.645
86	CG31988	DRSC22491	1.31	0.711	0.56
87	CG12096	DRSC21692	-0.981	-1.13	-1.1
88	CG12096	DRSC27886	0.433	1.85	1.36
